Experimental data: patent US10660336B2 (priority 2014, dated 2020)

System: pepper mottle virus (PepMoV)
Conditions: Nicotiana benthamiana; compound mixed with inoculum 30 min before inoculation; Trichodermin 50, 10, 5, 1 μM; Trichoderminol 2000, 1000, 500, 100 μM; 3, 6, 9, 12 dpi; versus DMSO control

**Q.** How did the “spreading rate of the pepper mottle virus (green fluorescent protein in upper leaves under UV, viral RNA and coat protein)” value turn out when `CC(=O)O[C@@H]1C[C@H]2O[C@@H]3C=C(CO)CC[C@]3(C)[C@]1(C)[C@]21CO1` was run?
**A.** Its value is “inhibits spreading rate of the pepper mottle virus”.
